1 compound from patent US10751301B2, “Methods for inhibiting conversion of choline to trimethylamine (TMA)” (The Procter & Gamble Company, priority 2017, dated 2020) can be followed below.

Assay [1] deals with recombinant P. mirabilis Cut C/D lysate (Proteus mirabilis, UniProt B4EYG1). As to conditions: read-out: IC50 (mol/L) recombinant P. mirabilis Cut C/D lysate.
The subject of assay [2] is Proteus mirabilis 29906 (Pm) lysate. Put plainly: Inhibition of formation of TMA from choline in Proteus mirabilis lysate (Example 2). Type of assay: biochemical. As to conditions: read-out: TMA Inhibition (IC50, mol/L); Pm lysate 1.5 mg/mL protein, 50 μM d9-choline chloride, 37° C. two hours.
Assay [3] deals with whole cell wild-type P. mirabilis. Put plainly: Inhibition of conversion of choline to TMA by whole cell wild-type P. mirabilis (Example 5). Particulars: read-out: EC50 (mol/L) whole cell wild-type P. mirabilis. Format: cell-based.

Regarding `C[S+](CCO)CCCCl` (stereo not drawn), the IC50 in assay [1] was determined as 5.2 µM; in assay [2] it was 1320 nM. In addition, in assay [3], the EC50 was 0.0005 mol/L.
